Results on six sequences are retold here after article PMC9888711, “Pneumococcal capsule expression is controlled through a conserved, distal cis-regulatory element during infection” (PLOS Pathogens, 2023).

Series [1] deals with SpxRDBD (Streptococcus pneumoniae D39) (UniProt A0A0H2ZR90). Description: EMSA. The following applies: EMSA: 20 mM HEPES pH 7.2, 50 mM NaCl, 5 mM MgCl2, 1 mM CaCl2, 0.1 mM EDTA, 12% glycerol, 10 mM DTT, 0.5 uM DNA, 400 ng poly(dI-dC); recombinant protein; residues 1-63; protein details: His6-SUMO removed by Ulp1; label: 6-FAM forward.
Series [2] addresses CpsR (Streptococcus pneumoniae D39) (UniProt A0A0H2ZMA3). As to the kind of experiment: EMSA. The following applies: EMSA: 20 mM HEPES pH 7.2, 50 mM NaCl, 5 mM MgCl2, 1 mM CaCl2, 0.1 mM EDTA, 12% glycerol, 10 mM DTT, 0.5 uM DNA, 400 ng poly(dI-dC); recombinant protein; protein details: His6-SUMO removed by Ulp1; label: 6-FAM forward.
Series [3] deals with SpxR (Streptococcus pneumoniae D39) (UniProt A0A0H2ZR90). As to the kind of experiment: negative stain EM. The following applies: 50 mM NaCl, C3 trimer wheel, low resolution; recombinant protein; protein details: His6-SUMO removed by Ulp1.

The exact form of at least one protein or probe is not confirmed. At least one verdict was read from the data and is not stated in words by the source.

Take “GTGTACTATATTATATTGA (double strand) [37-CE 5' IR+4]”: in series [1], the binding result is given as “binds”.
Turning to “GTGTACTATATTATATTGAAA (double strand) [21-CE]”, the binding result in series [1] and in series [2] was “binds” in each case.
Take “TGTGTACTATATTATATTGAAACTAGAATAGTACACA (double strand) [37-CE]”: the binding result in series [3] is “binds”.
For the sequence “TGAAACTAGAATAGTACAC (double strand) [37-CE 3' IR+4]”, the binding result in series [1] is listed as “binds”.
Turning to “GAAACTAGAATAGTACAC (double strand) [37-CE 3' IR+3]”, in series [1], the binding result is on record as “binds”.
In the case of “TGTACTATATTATATTG (double strand) [37-CE 5' IR+3]”, in series [1], the binding result is “binds”.
